Measured values from several laboratories, pooled; numbers as filed in NIAID ChemDB.

All rows: whole-cell or culture tests; agent: Hepatitis C virus

a–b is a range or a potency band.

SMILES	measure	strain	setting	cell line	read by	value
CCOc1nc(NCc2ccc(F)cc2)nc2ccc(-c3cnc(NC(=O)C4CC4)nc3)nc12	EC50				replicon	<0.1 µM
CCc1cc2c(C(=O)NC)c(-c3ccc(F)cc3)oc2cc1N(CCF)S(C)(=O)=O	EC50			Huh7	replicon	<1 µM
C=CC1CC1(NC(=O)[C@@H]1C[C@@H](Oc2cc(-c3ccccc3)nc3cc(OC)ccc23)CN1C(=O)[C@H](C1CCCCC1)N1CCCCC1)C(=O)OCC	EC50	1b			replicon	<100 µM
COc1nc(N)nc2c1ncn2[C@@H]1O[C@H](COP(=O)(N[C@@H](C)C(=O)OCC(C)(C)C)Oc2cccc3ccccc23)[C@@H](O)[C@@]1(C)O	EC50	1b	24 h	Huh7	luciferase	0.011 µM
CNC(=O)c1c(-c2ccc(Cl)c(F)c2)oc2ccc(OC)cc12	EC50			Huh7	replicon	<10 µM
CN(C)C(=O)c1ccc(CNc2nc(NCC(F)(F)F)c3nc(-c4ccc(F)cc4)ccc3n2)cc1	EC50				replicon	<0.1 µM
Cn1c(-c2ccccc2)c(C2CCCCC2)c2ccc(C(=O)NC3(c4nnnn4CC(=O)O)CCCC3)cc21	EC50			Huh7	replicon	>10 µM
CCOc1nc(N)nc2ccc(-c3ccc(NC(=O)C4(O)CC4)cc3)nc12	EC50			Huh7	replicon	<0.3 µM
CN(C)C(=O)S(=O)(=O)NC(=O)c1ccc2c(C3CCCCC3)c3n(c2c1)CC(C(=O)N1CCN(c2ccncc2)CC1)=Cc1cccnc1-3	EC50			Huh7	replicon	0.01–1 µM
CCOc1nc(NCc2ccc(S(N)(=O)=O)cc2)nc2ccc(-c3ccc(F)c(S(N)(=O)=O)c3)nc12	EC50				replicon	<0.1 µM
COC(=O)/C=C\c1ccc(NC(=O)C2(NC(=O)c3ccc4c(C5CCCCC5)c5n(c4c3)CCCc3sc(C)nc3-5)CCCC2)cc1	EC50			Huh7	replicon	>10 µM
CC1CCC(C(=O)N(c2cc(-c3ccc(NC(=O)c4ccco4)s3)sc2C(=O)O)C(C)C)CC1	EC50	1a			replicon	>0.5 µM
O=C1Cn2c(c(C3CCCCC3)c3ccc(C(=O)NC4(C(=O)Nc5nccs5)CCCC4)cc32)-c2ccccc2N1	EC50			Huh7	replicon	0.01–1 µM
CCCC(NC(=O)C1C2CCCC2CN1C(=O)[C@@H](C)N1CCCC1)C(=O)C(=O)NC1CC1	EC50	1b			replicon	>100 µM
CCOc1nc(NCc2ccc(F)c(F)c2)nc2ccc(-c3ccc(F)cc3)nc12	EC50				replicon	<0.1 µM
CCOC(=O)c1nc(-c2ccc(NC(=O)C3(NC(=O)c4ccc5c(C6CCCCC6)c6n(c5c4)CCCc4ccccc4-6)CCCC3)cc2)cs1	EC50			Huh7	replicon	0.01–1 µM
C=CC1CC1(NC(=O)[C@@H]1C[C@@H](Oc2cc(-c3ccccc3)nc3cc(OC)ccc23)CN1C(=O)[C@H](C1CCCCC1)N1CCCCC1)C(=O)NS(=O)(=O)C1CC1	EC50	1b			replicon	<100 µM
COCCN(C(=O)C1CCC(C)CC1)c1cc(-c2ccc(NC(=O)c3cscn3)cc2)sc1C(=O)O	EC50	1b			replicon	<0.5 µM
COc1ccc2c(O[C@@H]3C[C@H]4C(=O)NC5(C(=O)O)CC5/C=C\CCCCC[C@H](N5CCCCC5)C(=O)N4C3)cc(-c3ccccc3)nc2c1	EC50	1b			replicon	<100 µM
CC1CCC(C(=O)N(c2cc(-c3ccc(NC(=O)c4cscn4)cc3)sc2C(=O)[O-])C(C)C)CC1.[NH3+]CCO	EC50	1b			replicon	<0.5 µM
CC(C)Oc1nc(N)nc2ccc(-c3ccc(C(=O)NC(C)(C)C)cc3)nc12	EC50			Huh7	replicon	0.3–1 µM
CC(C)S(=O)(=O)NC(=O)c1ccc2c(C3CCCCC3)c3n(c2c1)CC(C(=O)N1CCOCC1)Cc1ccccc1-3	EC50			Huh7	replicon	0.01–1 µM
Cc1cccnc1C(=O)Nc1ccc(-c2cc(N(C(=O)C3CCC(C)CC3)C(C)C)c(C(=O)O)s2)cc1	EC50	1a			replicon	<0.5 µM
CNC(=O)c1c(-c2ccc(F)cc2)oc2cc(C(C)N(C)S(C)(=O)=O)c(OC)cc12	EC50			Huh7	replicon	<1 µM
CCOC(=O)[C@@]12C[C@H]1/C=C\CCCCC[C@H](N1CCCCC1)C(=O)N1C[C@H](Oc3cc(-c4ccccc4)nc4cc(OC)ccc34)C[C@H]1C(=O)N2	EC50	1b			replicon	<100 µM
CNC(=O)c1c(-c2ccc(F)cc2)oc2cc(C(C)=O)c(OC(C)C)cc12	EC50			Huh7	replicon	<1 µM
Fc1ccc(-c2ccc3nc(NCc4ccccn4)nc(NCC(F)(F)F)c3n2)cc1	EC50				replicon	<0.1 µM
CCCC(NC(=O)C1C2CCCC2CN1C(=O)C(C)N1CCCCC1)C(=O)C(=O)NC1CC1	EC50	1b			replicon	<100 µM
COc1c(C(C)(C)C)cc(-n2ccc(=O)[nH]c2=O)c2ncc(-c3ccc(NS(C)(=O)=O)cc3)cc12	EC50	GT 1a-H77	40% human serum	Huh7	replicon	0.004 µM
N#Cc1ccc2c(C3CCCCC3)c3n(c2c1)CCCc1ncccc1-3	EC50			Huh7	replicon	0.01–1 µM
CS(=O)(=O)CCNc1nc(NCc2ccc(S(N)(=O)=O)cc2)nc2ccc(-c3cnc(N)s3)nc12	EC50				replicon	<0.1 µM
O=C(N[C@@H](C(=O)N1CCC[C@H]1c1ncc(-c2ccc(-c3ccc(-c4cnc([C@@H]5CCCN5C(=O)[C@H](NC(=O)C5CC5)c5ccccc5)s4)cc3)cc2)s1)c1ccccc1)C1CC1	EC90	genotype 1b		Huh7.5	luciferase / reporter gene	0.0000042 µM
CCOc1nc(NCc2ccc(F)cc2)nc2ccc(-c3ccc(NC(=O)[C@@H]4CCCN4)cc3)nc12	EC50				replicon	<0.1 µM
CCCC(NC(=O)C1C2CCCC2CN1C(=O)C(C)N1CCCC1)C(=O)C(=O)NC1CC1	EC50	1b			replicon	<100 µM
CNC(=O)c1c(-c2ccc(F)cc2)oc2cc(N3CCOCC3)c(OCc3nn(C)cc3Cl)cc12	EC50			Huh7	replicon	<1 µM
CC1CCC(C(=O)N(c2cc(-c3ccc(NC(=O)c4ncco4)cc3)sc2C(=O)O)C(C)C)CC1	EC50	1b			replicon	<0.5 µM
CNC(=O)c1c(-c2ccc(N)cc2)oc2ccc(OC(C)C)cc12	EC50			Huh7	replicon	<30 µM
c1cnc2c(c1)-c1c(C3CCCCC3)c3ccc(-c4nn[nH]n4)cc3n1CCC2	EC50			Huh7	replicon	1–10 µM

For reference, 2 entries again:

SMILES	measure	strain	setting	cell line	read by	value
CCCC(NC(=O)C1C2CCCC2CN1C(=O)C(C)N1CCCC1)C(=O)C(=O)NC1CC1	EC50	1b			replicon	<100 µM
Cc1cccnc1C(=O)Nc1ccc(-c2cc(N(C(=O)C3CCC(C)CC3)C(C)C)c(C(=O)O)s2)cc1	EC50	1a			replicon	<0.5 µM

ECn is the concentration giving n% inhibition of infection, replication or growth. An empty or dashed field is not shown. Neighbouring rows are from separate reports.